{"source": "paper PMC10057394", "about": "“Exploring the Antitubercular Activity of Anthranilic Acid Derivatives: From MabA (FabG1) Inhibition to Intrabacterial Acidification” (Pharmaceuticals, 2023)", "system": "H37Rv", "assay": "Selection of spontaneous resistance mutants", "data": [{"smiles": "O=C(Nc1ccc(C#CC2CC2)cc1C(=O)O)c1ccc(Cl)c(Cl)c1", "note": "[Compound 16, 5-(2-cyclopropylethynyl)-2-[(3,4-dichlorobenzoyl)amino]benzoic Acid]", "values": [{"measurement": "outcome of selection of spontaneous resistance mutants", "setting": "at 2× MIC", "value": "bacterial lawn"}, {"measurement": "outcome of selection of spontaneous resistance mutants", "setting": "at 3× MIC", "value": "lack of resistant colonies"}]}]}
